Source: the supplement of paper PMC9931576
Human monoclonal antibodies against the spike receptor-binding domain (heavy:light variable regions). IC50 against pseudoviruses bearing the spike of naturally observed variants; lower = stronger; >10 µg/ml means not reached at the top dose. No active / inactive call. The stated detection limit is 0.0005 µg/ml; values near or below 0.001 µg/ml lie at the floor of the assay.

B1: BD55-6544 (protein)
chain 1: QITLKESGPTLVKPTQTLTLTCTFSGFSLTTSGVGVGWIRQPPGKALEWLALIYWDDDKRYSPSLKTRITITKGTSKNQVVLTLTNMDPVDTATYYCAHMARPRGLPINPSWFDPWGQGTLVTVSS
chain 2: QSVLTQPPSASGTPGQRVTISCSGSSSNIGSNTVNWYQQLPGTAPKLLIYSHNQRPSGVPDRFSGSKSGSSASLAISGLQSGDEANYYCSTWDDSLNGPVFGGGTKLTVL
B2: BD55-6578 (protein)
chain 1: EVHLAESGGGLVMPGGSLRLSCAASGFTFSTYSMNWVRQAPGKGLEWVSGISSSGSLIFYADSVKGRFTISRDNAKNSLFLQMNSLRDEDTAVYYCARESHITMDTTFDSWGQGTPVTVSS
chain 2: DIQMTQSPSSLSASVGDRVIITCRASQSLNRHLNWYQQKPGKAPKLLIYSASSLQTGVPLRFSGSGSGTDFTLTISSLQPEDFATYYCQQSYSSPPGPGTFGQGTRLEIK
B3: BD55-6550 (protein)
chain 1: QVTLKESGPVLVKPTETLTLTCTVSEFSLNKVKMGVSWIRQPPGQALEWLAHIFSDDEESYNTSLKSRLTISKGASKSQVVLTMTNMDPVDTATYYCARMTFVATPLGYFYYMDVWGEGAPVTVSS
chain 2: DIQMTQSPSTLSASVGDRVTITCRASQSVNVWLAWYQQKPGKAPKLLIYKASSLEDGVPSRFSGSGSGTEFTLTISSLQPDDFATYYCQQYNGYFFTFGQGTKLEIK
B4: BD55-6575 (protein)
chain 1: EVQLVESGGNLVQPGGSLRLSCGVSGFTFSSYAMHWVRQAPGKALEYVSSITSNGGGTFYADSVKGRFTISRDTFKNTVYLQMGSLRVEDTAVYYCAREASTWDVVLDYWGQGTLVTVSS
chain 2: DIQMTQSPSSLSASVGDRVTITCRAGQSISTYLNWYQQKPGKAPKLLIYAASSLQSGVPSRFSGSGSGTDFTLTISSLQPEDFATYYCQQSYITPMYTFGQGTKLEIK
B5: BD55-6557 (protein)
chain 1: QVQLQQWGAGLLKPSETLSLTCAVYDGSFSGYFWSWIRQPPGKGLEWIGEIFHTGSTNYRPSLKSRLAVSMDTSKNHFSLKLTSLTAADTAVYYCARRPYCSGRYGCAFDMWGQGTMVSVSS
chain 2: DIVMTQSPDSLAVSLGERATIRCKSSQSVLYDANSKNYLAWYQHKPGQPPQLLLYWASTRESGVPDRFSGSGSGTDFTLTISSLQAEDVAVYYCQQYYNTPTFGQGTRLEIK
B6: BD55-6567 (protein)
chain 1: QVTLKESGPVLVKPTETLTLTCTVSGFSLSDVRMGVSWIRQPPGKALEWLAHIFSNDEKSYSTSLKSRLTISKDTSKSQVVLTMTNMDPVDTATYYCARTAPSLYYSDSSGPYYYYYGMDVWGQGTTVTVSS
chain 2: DIQVTQSPSSLSASVGDRVTITCRASQSISNYFNWYQQKPGKAPTLLIYAASTLQSGVPSRFSGSGSGTHFTLTISSLQPEDFASYYCQQTYGNTLTFGQGTKLEIK
B7: BD55-6548 (protein)
chain 1: QVTLKESGPVLVKPTETLTLTCTVSGFSLSNTRMGVSWIRQPPGKTLEWLAHISSNDAKSYSTSLKSRLTISMDTSKSQVVLTMTNMDPVDTATYYCARQTYGYSSGWYEDYWGQGTLVTVSS
chain 2: DIQMTQSPSSLSASVGDRVSLTCRASQSISSYLNWYQQKPGKAPKLLIHAASSLQSGVPSRFSGSGSGTDFTLTISSLQPEDFATYYCHQSYSTPPTFGQGTKLEIK
B8: BD55-6543 (protein)
chain 1: QLQLQESGPGLVKPSETLSLTCTVSGGSMRSSFYWGWIRQPPGKGLEWIGTLYTSGSTYYNPSVKSRITISEDTSKNQFSLNLRSLTAADSAVYYCVRVRIISGYSSDWQGETFYFDLWGRGTLVTVSS
chain 2: SYVLTEPPSVSVAPGATATITCGGTNLGSQSVHWYQQKPGQAPVLVVFENSARPSTIPERFSGSNSGNTATLTISRVEAGDEADYYCQVWDSRSDLVLFGGGTKLTVL
B9: BD55-6553 (protein)
chain 1: QVHLQQWGAGLLKPSETLSLTCAVYGGSISGSNYYWSWIRQPPGKGLEWIGEINHTGSTDYSPSLKSRVTMSLDTSKNQFSLNLSSVTAADTAMYYCARGLWYYYGSVSGYYYGMDVWGQGTTVTVSS
chain 2: QSVLTQPPSVSAAPGQKVTISCSRSGSNIGNNYVSWYQQLPGTAPKLLIYDNDKRPSGIPDRFSASNSGTSATLGISGLQTGDEADYYCGTWDSSLGARYVFGTGTKVTVL
B10: BD55-6561 (protein)
chain 1: VQLVQSGSELKKPGASVKISCKASGYTFTDYSMNWVRQAPGRGLEWMGWINTNTGNPAYAQAFAGRCVLSLDTSVNTAYLHISRLEADDTALYYCARDRDVLRGAMGGFAPWGQGTLVTVSS
chain 2: SYVLTQPPSVSVAPGKTARITCGGNEIGSKSVHWYQQKPGQAPVLVIYYDSDRPSGIPERFSGSNSGNTATLTISRVDAGDEADYFCQVWDSDINQVLFGGGTKLTVL
B11: BD55-1270 (protein)
chain 1: EVQLVESGGGLIQPGGSLRLSCAASGFTFSRFDMHWVRQTTGQGLEWVSAIGTAGDTYYSDSVKGRFTISRENGKNSFFLQMKSVRAGDTAVYYCARGDLTGITWYFDLWGRGTLVTVSS
chain 2: DIQMTQSPSSLSASVGERVTITCRASQTIGKYLHWYQLKPRKAPNLLIYDATSLQSGVPSRFSGSGSGTEFTLTITSLQPEDLATYYCQQSYTMPPVTFGGGTKVEI
B12: BD55-6565 (protein)
chain 1: QEQLVESGGGVVQPGRSLRLSCAASGFSFNDYAMHWVRQAPGRGLEWVAVISHDGSHKYDVDSVKGRFIVSRDNSKNTLYLQMNSVRVEDTAVYYCARVNGARGYGSGSYYTFYFYGMDVWGQGTTVTVS
chain 2: DIQMTQSPSSLSASVGDRVTITCRASQDINSYLNWYQVKPGKAPKLLIYGASDLQSGVPSRFSGSGSGTDFTLTISSLRPEDFATYYCQQTYSTPPFAFGPGTKVDIK

target: SARS-CoV-2 Omicron BA.1 spike pseudovirus; assay: pseudovirus neutralization IC50; higher = weaker neutralization
Description: (§1)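 Single-round VSV luciferase pseudovirus mixed with antibody dilutions for 1 h and put on Huh-7 cells for about a day; IC50 from the dose curve.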

Binder	pseudovirus neutralization IC50
B1	> 10 µg/mL
B2	> 10 µg/mL
B3	> 10 µg/mL
B4	> 10 µg/mL
B5	> 10 µg/mL
B6	> 10 µg/mL
B7	> 10 µg/mL
B8	> 10 µg/mL
B9	> 10 µg/mL
B10	> 10 µg/mL
B11	> 10 µg/mL
B12	> 10 µg/mL

target: SARS-CoV-2 Omicron BA.2 spike pseudovirus; assay: as above
Description: as §1

Binder	pseudovirus neutralization IC50
B1	> 10 µg/mL
B2	> 10 µg/mL
B3	> 10 µg/mL
B4	> 10 µg/mL
B5	> 10 µg/mL
B6	> 10 µg/mL
B7	> 10 µg/mL
B8	> 10 µg/mL
B9	> 10 µg/mL
B10	> 10 µg/mL
B11	> 10 µg/mL
B12	> 10 µg/mL

target: SARS-CoV-2 Omicron BA.2.75 spike pseudovirus; assay: as above
Description: as §1

Binder	pseudovirus neutralization IC50
B1	> 10 µg/mL
B2	> 10 µg/mL
B3	> 10 µg/mL
B4	> 10 µg/mL
B5	> 10 µg/mL
B6	> 10 µg/mL
B7	> 10 µg/mL
B8	> 10 µg/mL
B9	> 10 µg/mL
B10	> 10 µg/mL
B11	> 10 µg/mL
B12	> 10 µg/mL

target: SARS-CoV-2 Omicron BA.5 spike pseudovirus; assay: as above
Description: as §1

Binder	pseudovirus neutralization IC50
B1	> 10 µg/mL
B2	> 10 µg/mL
B3	> 10 µg/mL
B4	> 10 µg/mL
B5	> 10 µg/mL
B6	> 10 µg/mL
B7	> 10 µg/mL
B8	> 10 µg/mL
B9	> 10 µg/mL
B10	> 10 µg/mL
B11	> 10 µg/mL
B12	> 10 µg/mL

target: SARS-CoV-2 Omicron BQ.1.1 spike pseudovirus; assay: as above
Description: as §1

Binder	pseudovirus neutralization IC50
B1	> 10 µg/mL
B2	> 10 µg/mL
B3	> 10 µg/mL
B4	> 10 µg/mL
B5	> 10 µg/mL
B6	> 10 µg/mL
B7	> 10 µg/mL
B8	> 10 µg/mL
B9	> 10 µg/mL
B10	> 10 µg/mL
B11	> 10 µg/mL
B12	> 10 µg/mL

target: SARS-CoV-2 Omicron XBB spike pseudovirus; assay: as above
Description: as §1

Binder	pseudovirus neutralization IC50
B1	> 10 µg/mL
B2	> 10 µg/mL
B3	> 10 µg/mL
B4	> 10 µg/mL
B5	> 10 µg/mL
B6	> 10 µg/mL
B7	> 10 µg/mL
B8	> 10 µg/mL
B9	> 10 µg/mL
B10	> 10 µg/mL
B11	> 10 µg/mL
B12	> 10 µg/mL

target: SARS-CoV-2 early D614G spike pseudovirus; assay: as above
Description: as §1

Binder	pseudovirus neutralization IC50
B1	> 10 µg/mL
B2	4.66 µg/mL
B3	2.21 µg/mL
B4	> 10 µg/mL
B5	> 10 µg/mL
B6	> 10 µg/mL
B7	> 10 µg/mL
B8	1.19 µg/mL
B9	> 10 µg/mL
B10	> 10 µg/mL
B11	> 10 µg/mL
B12	> 10 µg/mL
